Read-outs that look alike come from different tables or passages of the source.
System: wild type HIV strain IIIB
Assay: Cellular anti-HIV assay in MT4 LTR-EGFP cells (GFP fluorescence), strain IIIB; cytotoxicity in mock-infected MT4 CMV-EGFP cells for the selectivity index
Type: cell-based, HIV-1
Method: The antiviral activity of the compound of the present invention has been evaluated in the presence of wild type HIV and HIV mutants bearing mutations at the reverse transcriptase gene. The activity of the compounds is evaluated using a cellular assay which was performed according to the following procedure.
The human T-cell line MT4 is engineered with Green Fluorescent Protein (GFP) and an HIV-specific promoter, HIV-1 long terminal repeat (LTR). This cell line is designated MT4 LTR-EGFP, and can be used for the in vitro evaluation of anti-HIV activity of investigational compounds. In HIV-1 infected cells, the Tat protein is produced which upregulates the LTR promotor and finally leads to stimulation of the GFP reporter production, allowing to measure ongoing HIV-infection fluorometrically.
Analogously, MT4 cells are engineered with GFP and the constitutional cytomegalovirus (CMV) promotor. This cell line is designated MT4 CMV-EGFP, and can be used for the in vitro evaluation of cytotoxicity of investigational compounds. In this cell line, GFP levels are comparably to those of infected MT4 LTR-EGFP cells. Cytotoxic investigational compounds reduce GFP levels of mock-infected MT4 CMV-EGFP cells.
Effective concentration values such as 50% effective concentration (EC50) can be determined and are usually expressed in μM. An EC50 value is defined as the concentration of test compound that reduces the fluorescence of HIV-infected cells by 50%. The 50% cytotoxic concentration (CC50 in μM) is defined as the concentration of test compound that reduces fluorescence of the mock-infected cells by 50%. The ratio of CC50 to EC50 is defined as the selectivity index (SI) and is an indication of the selectivity of the anti-HIV activity of the inhibitor. The ultimate monitoring of HIV-1 infection and cytotoxicity is done using a scanning microscope. Image analysis allows very sensitive detection of viral infection. Measurements are done before cell necrosis, which usually takes place about five days after infection, in particular measurements are performed three days after infection.
The columns IIIB, L100I, etc. in the table list the pEC50 values against various strains IIIB, L100I, etc.
Strain IIIB is wild type HIV strain.

[1] = selectivity index = ratio of CC50 (mock-infected MT4 CMV-EGFP cells) to EC50 (strain IIIB), printed as pSI

| Compound | pSi (IIIB) [1] | pSi (IIIB) |
| --- | --- | --- |
| Cc1cc(/C=C/C#N)cc(C)c1Nc1nc(Nc2ccc(C#N)cc2)ncc1C(O)C#Cc1cncn1C (stereo not shown) [Compound 13] | 3.84 | – |
| Cc1cc(/C=C/C#N)cc(C)c1Nc1nc(Nc2ccc(C#N)cc2)ncc1C(O)c1cccnc1 (stereo not shown) [Compound 4] | 3.87 | – |
| C=CC(O)(c1nccs1)c1cnc(Nc2ccc(C#N)cc2)nc1Nc1c(C)cc(/C=C/C#N)cc1C (stereo not shown) [Compound 27] | – | 2.78 |
| C=CC(O)c1cnc(Nc2ccc(C#N)cc2)nc1Nc1c(C)cc(/C=C/C#N)cc1C (stereo not shown) [Compound 12] | 3.34 | – |
| Cc1cc(/C=C/C#N)cc(C)c1Nc1nc(Nc2ccc(C#N)cc2)ncc1C(C)(O)c1nccs1 (stereo not shown) [Compound 25] | 2.79 | – |
| Cc1cc(/C=C/C#N)cc(C)c1Nc1nc(Nc2ccc(C#N)cc2)ncc1C(O)(c1nccs1)C(C)C (stereo not shown) [Compound 26] | 2.05 | – |
| Cc1cnc(C(O)c2cnc(Nc3ccc(C#N)cc3)nc2Nc2c(C)cc(/C=C/C#N)cc2C)s1 (stereo not shown) [Compound 7] | 3.15 | – |
| CCC(O)(c1nccs1)c1cnc(Nc2ccc(C#N)cc2)nc1Nc1c(C)cc(/C=C/C#N)cc1C (stereo not shown) [Compound 22] | 2.97 | – |
| Cc1cc(/C=C/C#N)cc(C)c1Nc1nc(Nc2ccc(C#N)cc2)ncc1C(O)c1cncs1 (stereo not shown) [Compound 10] | 3.50 | – |
| Cc1cc(/C=C/C#N)cc(C)c1Nc1nc(Nc2ccc(C#N)cc2)ncc1C(O)c1scnc1Br (stereo not shown) [Compound 15] | 3.26 | – |
| Cc1cc(/C=C/C#N)cc(C)c1Nc1nc(Nc2ccc(C#N)cc2)ncc1C(O)C1CCCC1 (stereo not shown) [Compound 9] | 2.94 | – |
| Cc1cc(/C=C/C#N)cc(C)c1Nc1nc(Nc2ccc(C#N)cc2)ncc1C(O)c1ccccn1 (stereo not shown) [Compound 2] | 3.63 | – |
| Cc1cc(/C=C/C#N)cc(C)c1Nc1nc(Nc2ccc(C#N)cc2)ncc1C(O)c1cn2ccnc2s1 (stereo not shown) [Compound 16] | 3.00 | – |
| Cc1csc(CC(O)c2cnc(Nc3ccc(C#N)cc3)nc2Nc2c(C)cc(/C=C/C#N)cc2C)n1 (stereo not shown) [Compound 6] | 3.36 | – |
| Cc1cc(/C=C/C#N)cc(C)c1Nc1nc(Nc2ccc(C#N)cc2)ncc1C(O)c1nccn1C (stereo not shown) [Compound 11] | 3.78 | – |
| Cc1csc(C(O)c2cnc(Nc3ccc(C#N)cc3)nc2Nc2c(C)cc(/C=C/C#N)cc2C)n1 (stereo not shown) [Compound 8] | 3.53 | – |
| Cc1cc(/C=C/C#N)cc(C)c1Nc1nc(Nc2ccc(C#N)cc2)ncc1C(O)c1csc2nc(Cl)cn12 (stereo not shown) [Compound 18] | 3.14 | – |
| Cc1cc(/C=C/C#N)cc(C)c1Nc1nc(Nc2ccc(C#N)cc2)ncc1C(O)c1nc2ccccc2s1 (stereo not shown) [Compound 14] | 2.95 | – |
| COc1ccccc1C(O)c1cnc(Nc2ccc(C#N)cc2)nc1Nc1c(C)cc(/C=C/C#N)cc1C (stereo not shown) [Compound 5] | 3.78 | – |

Source: patent publication US8163745B2, “HIV inhibiting 5-(hydroxymethylene and aminomethylene) substituted pyrimidines” (Tibotec Pharmaceuticals Ltd., priority 2006, dated 2012)
